Assay results from patent US10226048B2 (priority 2014, dated 2019).

Assay: Oxidization ability against sodium thiosulfate
Conditions: basic solution (pH 9.3)

For OO [HP, hydrogen peroxide], the “STS oxidized by this oxidant (stoichiometry)” value was “less than 10%”.
